A mixed list of measured activities; the numbers were collected in NIAID ChemDB.

Shared fields: growth or infection tests; agent: HIV-1; cells: MT-2; measure: EC50

Rows are shuffled and stem from different studies. Blank or dashed fields: not listed here. ECn: concentration that inhibits the pathogen or its effect by n%.

compound	strain or isolate	changes	read by	value
CC(C)C1=C2[C@H]3CC[C@@H]4[C@@]5(C)CC[C@H](OC(=O)[C@H]6C[C@@H](C(=O)O)C6(C)C)C(C)(C)[C@@H]5CC[C@@]4(C)[C@]3(C)CC[C@@]2(NC(=O)C(C)(C)NC(=O)c2ccc(O[C@@H]3CCOC3)cc2)CC1=O	92HT599	-	p24 / ELISA	<0.003 µM
CC(C)C1=C2[C@H]3CC[C@@H]4[C@@]5(C)CC[C@H](OC(=O)[C@H]6C[C@@H](C(=O)O)C6(C)C)C(C)(C)[C@@H]5CC[C@@]4(C)[C@]3(C)CC[C@@]2(CC(=O)NCc2ccc(Cl)cn2)CC1=O	92HT599	-	p24 / ELISA	<1 µM
CC(C)C1=C2[C@H]3CC[C@@H]4[C@@]5(C)CC[C@H](OC(=O)[C@H]6C[C@@H](C(=O)O)C6(C)C)C(C)(C)[C@@H]5CC[C@@]4(C)[C@]3(C)CC[C@@]2(NC(=O)C(C)(C)NC(=O)c2ccc(OCCN3CCOCC3)cc2)CC1=O	92HT599	-	p24 / ELISA	<0.003 µM
O=C1N(Cc2ccc3[nH]nc(NCC4CC4)c3c2)[C@H](Cc2ccccc2)[C@H](O)[C@@H](O)[C@@H](Cc2ccccc2)N1Cc1ccc2[nH]nc(NCC3CC3)c2c1	RF	-	-	<0.038 µM
Cc1nccnc1-c1ccc2c(=O)n(-c3ccc(Cl)c4c(NS(C)(=O)=O)nn(C)c34)c(C(Cc3cc(F)cc(F)c3)NC(=O)Cn3nc(C(F)F)c4c3C(F)(F)[C@@H]3C[C@H]43)nc2c1	NL4-3	-	luciferase	0.00056 µM
CC(C)C1=C2[C@H]3CC[C@@H]4[C@@]5(C)CC[C@H](OC(=O)[C@H]6C[C@@H](C(=O)O)C6(C)C)C(C)(C)[C@@H]5CC[C@@]4(C)[C@]3(C)CC[C@@]2(NC(=O)C(C)(C)NC(=O)c2ccc(O[C@H]3CCOC3)cc2)CC1=O	92HT599	-	p24 / ELISA	<0.003 µM
CC(C)C1=C2[C@H]3CC[C@@H]4[C@@]5(C)CC[C@H](OC(=O)[C@H]6C[C@@H](C(=O)O)C6(C)C)C(C)(C)[C@@H]5CC[C@@]4(C)[C@]3(C)CC[C@@]2(CC(=O)NC(F)(F)CNC(=O)c2ccc(Cl)cc2)CC1=O	92HT599	-	p24 / ELISA	<1 µM
Nc1n[nH]c2ccc(CN3C(=O)N(CC4CCC4)[C@H](Cc4ccccc4)[C@H](O)[C@@H](O)[C@H]3Cc3ccccc3)cc12	RF	PR-S184V	-	<0.53 µM
COc1ccc(C[C@H](C[C@H](O)[C@H](Cc2ccccc2)NC(=O)OC(C)(C)C)C(=O)N[C@H](C(=O)N[C@@H](Cc2ccccc2)C(=O)N2CCOCC2)C(C)C)cc1	MN	-	RT activity	0.0045 µM
CC(C)C1=C2[C@H]3CC[C@@H]4[C@@]5(C)CC[C@H](OC(=O)[C@H]6C[C@@H](C(=O)O)C6(C)C)C(C)(C)[C@@H]5CC[C@@]4(C)[C@]3(C)CC[C@@]2(NC(=O)C(C)(C)NC(=O)c2ccc(CN3CCOCC3)cc2)CC1=O	92HT599	-	p24 / ELISA	<0.003 µM
CC(C)C1=C2[C@H]3CC[C@@H]4[C@@]5(C)CC[C@H](OC(=O)[C@H]6C[C@@H](C(=O)O)C6(C)C)C(C)(C)[C@@H]5CC[C@@]4(C)[C@]3(C)CC[C@@]2(CC(=O)NCc2ccccn2)CC1=O	92HT599	-	p24 / ELISA	<1 µM
Nc1n[nH]c2ccc(CN3C(=O)N(CC4CC4)[C@H](Cc4ccccc4)[C@H](O)[C@@H](O)[C@H]3Cc3ccccc3)cc12	RF	-	-	<0.114 µM
CC(C)C1=C2[C@H]3CC[C@@H]4[C@@]5(C)CC[C@H](OC(=O)[C@H]6C[C@@H](C(=O)O)C6(C)C)C(C)(C)[C@@H]5CC[C@@]4(C)[C@]3(C)CC[C@@]2(CCNCc2ccc(Cl)cc2OC2CCNCC2)CC1=O	92HT599	-	p24 / ELISA	<1 µM
COCCOc1cc(Cl)ccc1C(=O)NC(C)(C)C(=O)N[C@@]12CC[C@]3(C)[C@H](CC[C@@H]4[C@@]5(C)CC[C@H](OC(=O)[C@H]6C[C@@H](C(=O)O)C6(C)C)C(C)(C)[C@@H]5CC[C@]43C)C1=C(C(C)C)C(=O)C2	92HT599	-	p24 / ELISA	<0.003 µM
Cc1o[nH]c(=O)c1C(=O)NC(C)(C)CNC(=O)C[C@@]12CC[C@]3(C)[C@H](CC[C@@H]4[C@@]5(C)CC[C@H](OC(=O)[C@H]6C[C@@H](C(=O)O)C6(C)C)C(C)(C)[C@@H]5CC[C@]43C)C1=C(C(C)C)C(=O)C2	92HT599	-	p24 / ELISA	<1 µM
CNc1n[nH]c2ccc(CN3C(=O)N(Cc4ccc5[nH]nc(NC)c5c4)[C@H](Cc4ccccc4)[C@H](O)[C@@H](O)[C@H]3Cc3ccccc3)cc12	RF	-	-	<0.0279 µM

2 of the rows above, restated:

compound,strain or isolate,changes,read by,value
CC(C)C1=C2[C@H]3CC[C@@H]4[C@@]5(C)CC[C@H](OC(=O)[C@H]6C[C@@H](C(=O)O)C6(C)C)C(C)(C)[C@@H]5CC[C@@]4(C)[C@]3(C)CC[C@@]2(CCNCc2ccc(Cl)cc2OC2CCNCC2)CC1=O,92HT599,-,p24 / ELISA,<1 µM
Nc1n[nH]c2ccc(CN3C(=O)N(CC4CCC4)[C@H](Cc4ccccc4)[C@H](O)[C@@H](O)[C@H]3Cc3ccccc3)cc12,RF,PR-S184V,-,<0.53 µM